Measured values published in US9549941B2, “Compositions and methods for treating hepatitis C virus” (priority 2011, dated 2017).

Assays:
Type in all cases: cell-based, hepatitis C virus
[1] = test system: 1b con-1 sub-genomic replicon, NS5B S282T; conditions: genotype 1b, S282T from corresponding wild-type
[2] = test system: 1a-H77 sub-genomic replicon, NS5B S282T; conditions: genotype 1a, S282T from corresponding wild-type
[3] = test system: 2a JFH1 sub-genomic replicon, NS5B S282T; conditions: genotype 2a, S282T from corresponding wild-type
[4] = test system: 1b con-1-based chimeric replicon containing 2b NS5B S282T; conditions: genotype 2b, S282T from corresponding wild-type
[5] = test system: 1b con-1-based chimeric replicon containing 3a NS5B S282T; conditions: genotype 3a, S282T from corresponding wild-type
[6] = test system: 1b con-1-based chimeric replicon containing 4a NS5B S282T; conditions: genotype 4a, S282T from corresponding wild-type

## NC(=O)c1ncn([C@@H]2O[C@H](CO)[C@@H](O)[C@H]2O)n1 [Ribavirin, 1-β-D-ribofuranosyl-1H-1,2,4-triazole-3-carboxamide, reference compound]
[1]
  Fold Change: 0.2
[2]
  Fold Change: 0.2
[3]
  Fold Change: 0.1
[4]
  Fold Change: 0.2
[5]
  Fold Change: 0.2
[6]
  Fold Change: 0.1
